Results on twelve molecules are retold here after the supplement of paper PMC9931576.

Common to all, as to assay: pseudovirus neutralization IC50; higher = weaker neutralization
Test [1] has as its target SARS-CoV-2 Omicron BA.1 spike pseudovirus. As to the method:
(§1)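 Single-round VSV luciferase pseudovirus mixed with antibody dilutions for 1 h and put on Huh-7 cells for about a day; IC50 from the dose curve.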

Test [2] has as its target SARS-CoV-2 Omicron BA.2 spike pseudovirus. How it is done:
as §1

For test [3], the target named is SARS-CoV-2 Omicron BA.2.75 spike pseudovirus. How it is done: as §1
Test [4] deals with SARS-CoV-2 Omicron BA.5 spike pseudovirus. How it is done:
as §1

The target of test [5] is SARS-CoV-2 Omicron BQ.1.1 spike pseudovirus. How it is done: as §1
For test [6], the target named is SARS-CoV-2 Omicron XBB spike pseudovirus. How it is done: as §1
Test [7] deals with SARS-CoV-2 early D614G spike pseudovirus. How it is done:
as §1

Numbering of substitutions follows the chain as printed. Human monoclonal antibodies against the spike receptor-binding domain (heavy:light variable regions). IC50 against pseudoviruses bearing the spike of naturally observed variants; lower = stronger; >10 µg/ml means not reached at the top dose. No active / inactive call. The stated detection limit is 0.0005 µg/ml; values near or below 0.001 µg/ml lie at the floor of the assay.

B1: BD56-1603 (protein)
chain 1: EVQLVQSGAEVKKPGESLKISCKVSGYSFISYWIGWVRQMPGKGLEWMGIIYPGDSDTTYSPSFQGLVTFSADKSITTAYLQWSSLRASDTAMYYCARHVTYGSGYYADYWGQGTLVTVSS
chain 2: EIVLTQSPGTLSLSPGERATLSCRASQSVGSSYLAWYQQKPGQAPRLLIYSASSRATGIPDRFSGSGSGTDFTLTISRLEPEDFAVYYCQQYGNSPLIAFGPGTKVDIK
B1: the “pseudovirus neutralization IC50” value in test [1], in test [2], in test [3], in test [4], in test [5] and in test [6] was above 10 µg/mL in each case. Also, the “pseudovirus neutralization IC50” value in test [7] is above 10 µg/mL.

B2: BD56-1604 (protein)
chain 1: EVLLVESGGGFVKPGGSLRLSCAASGFSFSDAWMNWVRQAPGKGLEWVGRIETKTDGGTADYAAPVKARFTISRDDSKNMVYLQMNSLKIEDTAVYYCWFGELLHYYSYGMDVWGQGTTVTVSS
chain 2: DIQMTQSPSTLSASVGDRVTITCRASQSISTWLAWYQQKLGKAPKLLIYKASSLQTGVPSRFSGSGSGTEFTLTISGLRPDDFATYYCQQYNSHFYTFGQGTKLEIK
Regarding B2, the “pseudovirus neutralization IC50” value in test [1], in test [2], in test [3], in test [4], in test [5] and in test [6] was above 10 µg/mL in each case. Moreover, the “pseudovirus neutralization IC50” value in test [7] was above 10 µg/mL.

B3: BD56-1593 (protein)
chain 1: EVQLVQSGAEVKKPGESLKISCKTSGYSFISYWIAWVRQMPGKGLEWMGFIYPGDSDARYSPSFQGQVTISAAKSISTAYLQWTSLKASDTAIYYCARQPHSYSSVDYWGQGTLVTVSS
chain 2: QSVLTQPPSASGTPGLRVTISCSGSSSNIGGNAVNWYHQFPGTAPRLLIYNNNERPSGVPDRFSGSKSGTSASLAISGLQSGDEADYYCAAWDDSLNGVVFGGGTKLTVL
Regarding B3, the “pseudovirus neutralization IC50” value in test [1] came out at 2.99 µg/mL; in test [2] it was 2.03 µg/mL; in test [3] it was 0.351 µg/mL; in test [4], 0.568 µg/mL; in test [5], 0.868 µg/mL; in test [6], 1.42 µg/mL. The “pseudovirus neutralization IC50” value in test [7] is 2.04 µg/mL.

B4: BD56-1599 (protein)
chain 1: QVQLVESGGGVVQPGRSLRLSCAASGFTFRTYGMHWVRQAPGKGLEWVASIWYDGSNEDYADSAKGRFTISRDNSNHTLFLQLNSLRVEDTAVYYCAKDPNPYGSGWFSFHFDYWGQGSLVTVSS
chain 2: QSVLTQPPSVSGAPGQRVTISCTGSSSNIGASYDVHWYQQLPGTAPKLLIYDNNNRPSGVPDRFSGSKSDTSASLAITGLQAEDEADYYCQSYDTSLGRVFGGGTKLTVL
Take B4: the “pseudovirus neutralization IC50” value in test [1], in test [2], in test [3], in test [4], in test [5] and in test [6] was above 10 µg/mL each time. For the same molecule, the “pseudovirus neutralization IC50” value in test [7] is above 10 µg/mL.

B5: BD56-1609 (protein)
chain 1: QVQLVESGGGVVQPGRSLRLSCAASGFTFSNYAMHWVRQAPGKGLEWVAVISYDGSNKYYADSVKGRFTISRDNSKNTLYLQMNSLRAEDTAVHYCAASGGDYIDYYYYDGMDVWGQGTTVTVSS
chain 2: DIQLTQSPSSLSASVGDRVTITCRASQGISSYLAWYQQKPGKAPKLLIYAASTLQSGVPSRFSGSGSGTDFTLTISSLQPEDFATYYCQQLIVYPLTFGGGTKVEIK
Consider B5, for which the “pseudovirus neutralization IC50” value was 0.005 µg/mL in test [1]; 0.00211 µg/mL in test [2]; 0.00777 µg/mL in test [3]; above 10 µg/mL in test [4]; above 10 µg/mL in test [5]; above 10 µg/mL in test [6]. Besides, the “pseudovirus neutralization IC50” value in test [7] was 0.0185 µg/mL.

B6: BD56-1611 (protein)
chain 1: EVQLVESGGGLVQPGGSLRLSCAASGFTFSDYDMHWVRQRPGKGLEWVSTIGTAGDTYYRGSVKGRFTISRENAKSSLYLQMKSLRDGDTAVYYCARAQYSSNLYPRLDAWGQGTLVTVSS
chain 2: DIQMTQSPSSLSASVGDRVTITCRASQTIRDFLNWYQQKPGKAPKLLIYAASSLQSGVPSRFSGSGSGTDFTLTISSLQPEDFATYSCQQSYSSEWTFGQGTKVEIK
With B6, the “pseudovirus neutralization IC50” value in test [1], in test [2], in test [3], in test [4], in test [5] and in test [6] was above 10 µg/mL in each case. Moreover, in test [7], the “pseudovirus neutralization IC50” value was above 10 µg/mL.

B7: BD56-1596 (protein)
chain 1: QAQLVQSGAALKKPGSSVKVSCKASGGTFSSYSISWVRQAPGQGLEWMGGIIPMLGSTKYEQKFQGRVTITADKSTSTAYMDLSSLRFDDSAVYYCARELGYSGMGSNWYFDLWGRGTLVTVSS
chain 2: QSVLTQPPSVSGAPGQRVTISCTGSNSNIGAGYDVHWYQQLPGTAPKLLIYANNNRPSGVPDRFSGSKSGTSASLAITGLQAEDEADYYCQSYDSSLSGSVFGGGTKLTVL
As for B7, the “pseudovirus neutralization IC50” value in test [1] is 0.254 µg/mL; in test [2] it was 0.24 µg/mL; in test [3] it was 0.105 µg/mL; in test [4], 2.73 µg/mL; in test [5] it was 4.15 µg/mL; in test [6], 3.44 µg/mL. In test [7], the “pseudovirus neutralization IC50” value is 0.77 µg/mL.

B8: BD56-1617 (protein)
chain 1: QVQLVQSGAEVKKPGSSVKVSCKASGGTFSSYTITWVRQAPGQGLEWMGRIIPFLGVPNYAQKFQDRVTITADKSTSTAYMELRSLRSEDTAVYFCARVAPMATNDWYFDLWGRGTLVTVSS
chain 2: B7 chain 2 with A52G, N54S, G99D
Take B8: the “pseudovirus neutralization IC50” value in test [1] was 0.0416 µg/mL; in test [2], 0.0507 µg/mL; in test [3] it was 0.0874 µg/mL; in test [4] it was 4.56 µg/mL; in test [5], above 10 µg/mL; in test [6], 7.33 µg/mL. Further, in test [7], the “pseudovirus neutralization IC50” value is 0.669 µg/mL.

B9: BD56-1619 (protein)
chain 1: QLLLQESVSGLVKPSQTLSLTCAVSGGSISSGGFSWSWIRQAPGKGLEWIGNIYHGGSTHYNPSLKSRVTISGDRSKNQFSLKLTSVTAADTAVYYCARGRPPGYSYAYADDWYFDLWGRGTLVTVSS
chain 2: SYELTQPPSVSVSPGQTARITCSADALPTQYVYWYQQKPGQAPVLVIYKDSERPSGIPERFSGSSSGTKVTLTISGVQAEDEADYYCQSADSRGVVFGGGTKLTVL
On to B9, for which the “pseudovirus neutralization IC50” value in test [1], in test [2], in test [3], in test [4], in test [5] and in test [6] was above 10 µg/mL each time. The “pseudovirus neutralization IC50” value in test [7] is above 10 µg/mL.

B10: BD56-1620 (protein)
chain 1: QVQLVESGGGVVQPGRSLRLSCAASGFTFRSYAIHWVRQAPGKGLEWVGVISSDGFDKYFADSVKGRATISRDNSKNTLFLQMNSLTTDDTAVYYCAREKVLGGSWSGYPMGDYWGQGTLVTVSS
chain 2: DIQMTQSPSSLSASVGDRVTIACQASQDINNYVSWFQQKPGKAPKLLIYDASNLETGVPSRFSGSGSGTHFTFTISSLQPEDIATYYCQQYDNFPRTFGRGTKLEIK
With B10, the “pseudovirus neutralization IC50” value in test [1] was 0.0314 µg/mL; in test [2], 0.0438 µg/mL; in test [3], 0.0674 µg/mL; in test [4] it was 0.0896 µg/mL; in test [5] it was above 10 µg/mL; in test [6], 1.38 µg/mL. In addition, in test [7], the “pseudovirus neutralization IC50” value was 0.14 µg/mL.

B11: BD56-1614 (protein)
chain 1: EVQLVQSGGGLVQPGGSLRLSCAASGFIFGDYSMNWVRQAPGKGLEWVSYISSSSRTIYYAASVKGRFTISRDNAKNSLYLQMSSLRDEDTAMYYCARADLWGYDIVTDYSGLLDYWGQGTLVTVSS
chain 2: EIVLTQSPGTLSLSPGERATLSCRASQTVSSTYLAWYQQKPGQAPRLLIYGASSRATGIPDRFTGSGSGTDFTLTISRLEPEDFALYYCQQSDTPPATFGQGTKVDIK
As for B11, the “pseudovirus neutralization IC50” value in test [1], in test [2], in test [3], in test [4], in test [5] and in test [6] was above 10 µg/mL throughout. Moreover, the “pseudovirus neutralization IC50” value in test [7] is above 10 µg/mL.

B12: BD56-1606 (protein)
chain 1: QVQLVESGGGVVQPGRSLRLSCAASRFTFSTYGMHWVRQVPGKGLEWVAFIYYDGSNKYYANSVKGRFTISRDNSKNTLYLQMNSLRAEDTAVYFCAKQIAPYGGSSPYYFDYWGQGTLVTVSS
chain 2: DIQMTQSPSSLSASVGDRVTITCQASQVIDNYLNWYQQKPGKAPKLLIYDASNLEAGVPSRFSGSGSGTDFTFTISSLQPGDGATYYCQQSADLPLSFGGGTKVEIK
For B12, the “pseudovirus neutralization IC50” value in test [1], in test [2], in test [3], in test [4], in test [5] and in test [6] was above 10 µg/mL throughout. Further, the “pseudovirus neutralization IC50” value in test [7] was above 10 µg/mL.
